Laboratory results: ChEMBL document CHEMBL4041536, “Design, synthesis and biological activity of novel molecules designed to target PARP and DNA” (Bioorg Med Chem Lett, 2017)

Experiments:
Cricetulus griseus [1] = organism: Cricetulus griseus; assay: Inhibition of PARP in chinese hamster VC8 cells harboring BRCA2 mutant assessed as growth inhibition; format: cell-based
Cricetulus griseus [2] = organism: Cricetulus griseus; assay: Selectivity ratio of PARP inhibition in chinese hamster VC8 cells harboring wild type BRCA2 to PARP inhibition in chinese hamster VC8 cells harboring BRCA2 mutant; format: cell-based

Compound: O=c1[nH]ccc2c(/N=N/N(CCCl)CCCl)cccc12
- inhibition (Cricetulus griseus [1]): inactive
- Selectivity ratio (Cricetulus griseus [2]): 2 to 7

The source made the active and inactive calls. No cut-off for these calls is given here.
